Anti-infective test results gathered from many reports (values: NIAID ChemDB through PubChem).

Common to all: growth or infection tests; organism: Mycobacterium tuberculosis

MIC50, MIC90 and the like: level of inhibition, or share of isolates inhibited.

structure	read-out	dose	cell line	read by	strain or isolate	setting	changes	value
CO[C@H]1/C=C/O[C@@]2(C)Oc3c(C)c(O)c4c(O)c(c5c(c4c3C2=O)NC2(CCN(CC(C)C)CC2)N=5)=NC(=O)/C(C)=C\C=C\[C@H](C)[C@H](O)[C@@H](C)[C@@H](O)[C@@H](C)[C@H](OC(C)=O)[C@@H]1C	MIC				H37Rv			0.016 µg/mL
COC(=O)C1=C(N)SS/C1=C\[N+](=O)[O-]	MIC bound			BACTEC	H37Rv			>12.5 µg/mL
CO[C@H]1/C=C/O[C@@]2(C)Oc3c(C)c(O)c4c(O)c(c(/C=N/N5CCN(C)CC5)c(O)c4c3C2=O)NC(=O)/C(C)=C\C=C\[C@H](C)[C@H](O)[C@@H](C)[C@@H](O)[C@@H](C)[C@H](OC(C)=O)[C@@H]1C	MIC			BACTEC	JHU H37Rv			0.063 µg/mL
CC1OC(n2ccc(NC(=O)c3ccc(NC(=O)C(C)(N)CO)cc3)nc2=O)CCC1OC1OC(C)C(N(C)C)C(O)C1O	MIC				INH-r			0.8 µg/mL
O=[N+]([O-])c1cn2c(n1)OC[C@@H](OCc1ccc(N3CCN(S(=O)(=O)c4ccc(OC(F)(F)F)cc4)CC3)cc1)C2	MIC90			low oxygen				11 µM
CCOC(=O)C(NC(=O)c1cccc(Cl)c1)(N1CCN(c2cc3c(cc2F)c(=O)c(C(=O)O)cn3C2CC2)CC1)C(F)(F)F	MIC bound			resazurin	H37Rv			<6.25 µg/mL
O=C(Nc1ccc(Cl)c(Cl)c1)c1ncccc1S	MIC				CNCTC MY 331/8			62.5 µM
N#Cc1ccc(Nc2nc(Oc3cccc4cccnc34)nc(N3CCN(c4ccc(F)cc4)CC3)n2)cc1C(F)(F)F	MIC99			agar	H37Rv			25 µg/mL
O=C(NCc1ccccc1)c1ncccc1O	MIC				CNCTC MY 331/8			500 µM
CCCCS(=O)(=O)Nc1ccc2[nH]c(C(=O)NCC3CCC3)c(C)c2c1	MIC90			resazurin	H37Rv			>130 µM
CN1CCN(C(=S)SCN2C(=O)c3ccccc3S2(=O)=O)CC1	inhibition	6.25 µg/mL			H37Rv			99%
NNC(=O)c1ccncc1	MIC				H37Rv			0.062 µg/mL
Cc1ccc2c(Cl)c(C)c(N3CCOCC3)nc2n1	inhibition	6.25 µg/mL		BACTEC	H37Rv			0%
CCOC(=O)CC1NC(=O)CNC1=O	MIC bound			BACTEC	H37Rv			>12.5 µg/mL
O=[N+]([O-])c1cn2c(n1)OC[C@@H](OCc1ccc(Oc3ccc(C(F)(F)F)cc3)nc1)C2	MIC90			low oxygen				3.5 µM
CC(=O)OC[C@H]1O[C@@H](Oc2ccc(C=C(C(C)=O)C(C)=O)cc2)[C@H](OC(C)=O)[C@@H](OC(C)=O)[C@@H]1OC(C)=O	inhibition	6.25 µg/mL		resazurin	H37Rv			3%
CCCCS(=O)(=O)Nc1ccc2[nH]c(C(=O)NCC)c(C)c2c1	MIC90			resazurin	H37Rv			6.25 µM
Cn1c(=S)sc2ccc3ccccc3c21	inhibition	6.25 µg/mL		resazurin	H37Rv			8%
CCOc1cc(Cc2cnc(N)nc2N)cc(OCC)c1-n1cccc1	MIC				8 strains (isoniazid- rifampin-resistant)			≥256 µg/mL
CC1=NN(c2ccccc2)C(=O)C1N=Nc1cc(Cl)cc(S(=O)(=O)O)c1O	MIC bound			BACTEC	H37Rv			>12.5 µg/mL
O=C(Nc1ccccc1)c1ncccc1O	MIC				CNCTC MY 331/8			250 µM
O=c1ccc2c(N3CCCCC3)cc(N3CCOCC3)nc2[nH]1	inhibition	6.25 µg/mL		BACTEC	H37Rv			0%
COc1cc(C)cc2c1c(-c1ccc(O)cc1)[n+]1n2CCCC1.[OH-]	MIC			agar	H37Rv			250 µg/mL
CCOC(=O)CCN1CSC(=S)N(C2CC2)C1	MIC				H37Rv			12.5 µg/mL
CC1(C)CC(=O)C2=C(C1)NC(SSC1=C(C#N)C(c3ccc(F)cc3)C3=C(CC(C)(C)CC3=O)N1)=C(C#N)C2c1ccc(F)cc1	MIC bound			BACTEC	H37Rv			>12.5 µg/mL
COc1cc2c3c(c1OC)-c1c(ccc(O)c1O)C[C@@H]3[N+](C)(C)CC2.[OH-]	MIC			agar	H37Rv			250 µg/mL
COC1=CC23CCCN2CCc2cc4c(cc2C3C1O)OCO4	MIC			BACTEC	H37Rv			≥12.5 µg/mL
CCCCN1[C@@H](c2ccccc2)CC2(C[C@H]1c1ccccc1)N=c1c(c3c4c5c(C)c(O)c3c(O)c1=NC(=O)/C(C)=C\C=C\[C@H](C)[C@H](O)[C@@H](C)[C@H](O)[C@H](C)[C@H](OC(C)=O)[C@H](C)[C@@H](OC)/C=C/O[C@@](C)(O5)C4=O)N2	MIC				ATCC 35822 (isoniazid-resistant)			0.02 µg/mL
COC(=O)c1cnccn1	MIC90			resazurin		pH 6.0	Pyrazinamide-resistant	>724 µM
Cc1ccc(Nc2nc3c(s2)C(=O)c2ccccc2C3=O)c(C)c1	MIC		VERO		H37Rv			1.6 µg/mL
CCN1CCN(c2nc(Nc3ccc(C#N)c(C(F)(F)F)c3)nc(Oc3cccc4cccnc34)n2)CC1	MIC98			agar	H37Rv			200 µg/mL
CCOc1c(N=Nc2ccc([N+](=O)[O-])cc2)c(C)nn1C(=S)S	inhibition	12.5 µg/mL		BACTEC	H37Rv			26%
CCCCS(=O)(=O)Nc1ccc2[nH]c(C(N)=O)c(C)c2c1	MIC90			resazurin	DRM167 8x2		A119T DG167-resistant	>100 µM
CN(CCCC12CCC(c3ccccc31)c1ccccc12)C(=S)SCN1C(=O)c2ccccc2S1(=O)=O	inhibition	6.25 µg/mL			H37Rv			6%
O=C(O)CN1CSC(=S)N(C2CC2)C1	MIC				H37Rv			50 µg/mL
NC(=O)c1cnccn1	MIC90			resazurin		pH 6.0	Pyrazinamide-resistant	>100 µM
C[N+](C)(C)CC(=O)N/N=C1/c2ccccc2NC1[O-]	MIC bound			BACTEC	H37Rv			>12.5 µg/mL
CCCCCCCCCCCCc1ccc(NC(=O)C2=CCN(C)[C@@H]([C@H](O[C@@H]3O[C@H](CN)[C@@H](O)[C@H]3O)[C@H]3O[C@@H](n4ccc(=O)[nH]c4=O)[C@H](O)[C@@H]3O)C(=O)N2C)cc1	MIC				Kurono			3.13 µg/mL
O=C(Nc1ccc([N+](=O)[O-])cc1)c1ccccc1O	MIC				CNCTC MY 331/8			16 µM
CCOC(=O)N1CCN(c2ccc3cc(-c4ccccc4)c(=O)[nH]c3n2)CC1	EC50			BACTEC	H37Rv			>6.25 µg/mL
O=[N+]([O-])c1cn2c(n1)OC[C@@H](OCc1ccnc(N3CCC(Oc4ccc(OC(F)(F)F)cc4)CC3)c1)C2	MIC90			low oxygen				5.2 µM
Cc1cc2nc3c(=O)[nH]c(=O)nc-3n(CC=O)c2cc1C	MIC bound			BACTEC	H37Rv			>6.25 µg/mL
N#Cc1ccc(Nc2nc(Oc3cccc4cccnc34)nc(N3CCN(C(c4ccccc4)c4ccc(Cl)cc4)CC3)n2)cc1C(F)(F)F	MIC99			BACTEC	H37Rv			6.25 µg/mL
C=C(C)C1CC=C(C)/C(=N/NC(=O)c2cccnc2)C1	MIC				PAS-R			0.2 µg/mL
O=C(Nc1ccccc1)c1ncccc1S	MIC				CNCTC MY 331/8			32 µM
O=[N+]([O-])c1cn2c(n1)OC[C@@H](OCc1ccc(Oc3ccc(C(F)(F)F)cc3)cc1)C2	MIC90			low oxygen				0.65 µM
CC1CCN(C(=S)SCN2C(=O)c3ccccc3S2(=O)=O)CC1	inhibition	6.25 µg/mL			H37Rv			100%
CCCCCCOC(=O)c1cnccn1	MIC90			resazurin		pH 6.0	Pyrazinamide-resistant	>480 µM
S=C1SCN(C2CCCCC2)CN1c1ccco1	MIC				H37Rv			50 µg/mL
Cc1oc2c(c1C(=O)c1ccccc1)C(=O)c1ccccc1C2=O	MIC bound			BACTEC	H37Rv			>12.5 µg/mL
C[C@H]1COc2c(N3CCN(C)CC3)c(F)cc3c(=O)c(C(=O)O)cn1c23	MIC				102 strains			8 µg/mL
O=C1c2ccccc2S(=O)(=O)N1CSC(=S)N1CCCC1	MIC				H37Rv			0.78 µg/mL
O=C(OCCCl)c1cnccn1	MIC90			resazurin	H37Rv			72.1 µM
CO[C@H]1/C=C/O[C@@]2(C)Oc3c(C)c(O)c4c(O)c(c5c(c4c3C2=O)NC2(CCNCC2)N=5)=NC(=O)/C(C)=C\C=C\[C@H](C)[C@H](O)[C@@H](C)[C@@H](O)[C@@H](C)[C@H](OC(C)=O)[C@@H]1C	MIC				ATCC 35822 (isoniazid-resistant)			0.02 µg/mL
CC(C)(O)CC[C@@H](O)[C@](C)(O)[C@H]1CC[C@@]2(O)C3=CC(=O)[C@@H]4C[C@@H](O)[C@@H](O)C[C@]4(C)[C@H]3CC[C@]12C	MIC bound			BACTEC	H37Rv			>12.5 µg/mL
O=[N+]([O-])c1cn2c(n1)OC[C@@H](OCc1ccnc(N3CCN(c4ccc(C(F)(F)F)cn4)CC3)c1)C2	MIC90			resazurin				0.36 µM
CC(/C(=N/NC(=O)C(N)=O)c1c(Cl)ccc(Cl)c1O)C1(O)C(=O)Nc2ccccc21	inhibition	12.5 µg/mL		BACTEC	H37Rv			10%
N#Cc1ccc(Nc2nc(Oc3cccc4cccnc34)nc(N3CCN(c4ccccc4)CC3)n2)cc1C(F)(F)F	MIC			BACTEC	H37Rv			>6.25 µg/mL
Cc1ccc2c(O)c(Cc3ccccc3)c(=O)[nH]c2n1	inhibition	6.25 µg/mL		BACTEC	H37Rv			0%
COc1ccc(NC(=O)c2ccccc2O)cc1	MIC				CNCTC MY 331/8			62.5 µM
CCCCS(=O)(=O)Nc1ccc2[nH]c(C(=O)O)c(C)c2c1	MIC90			resazurin	H37Rv			>100 µM
COC(=O)C(Cc1ccccc1)NC(=O)C1N2C(=O)C(N)C2SC1(C)C	inhibition	20 µg/mL		colony count	Gordon	21 d		62%
N=C1OC(C(Cl)(Cl)Cl)N(c2cccc(F)c2)C1=O	MIC			BACTEC	H37Rv			≥12.8 µg/mL
Clc1cc(N2CCOCC2)nc2nc(N3CCOCC3)ccc12	inhibition	6.25 µg/mL		BACTEC	H37Rv			0%
O=C1NNC=Nc2ccc(cc2)S(=O)(=O)c2ccc(cc2)N=CNNC1=O	inhibition	12.5 µg/mL		BACTEC	H37Rv			13%
Cc1ccc2c(N3CCCCC3)c(Cc3ccccc3)c(N3CCCCC3)nc2n1	EC50			BACTEC	H37Rv			<6.25 µg/mL
O=[N+]([O-])c1cn2c(n1)OC[C@@H](OCc1ccc(Oc3ccc(OC(F)(F)F)cc3)cn1)C2	MIC90			resazurin				0.085 µM
O=C(NCc1ccc([N+](=O)[O-])cc1)c1ncccc1O	MIC				CNCTC MY 331/8			125 µM
C=CCN1[C@@H](c2ccccc2)CC2(C[C@H]1c1ccccc1)N=c1c(c3c4c5c(C)c(O)c3c(O)c1=NC(=O)/C(C)=C\C=C\[C@H](C)[C@H](O)[C@@H](C)[C@H](O)[C@H](C)[C@H](OC(C)=O)[C@H](C)[C@@H](OC)/C=C/O[C@@](C)(O5)C4=O)N2	MIC				H37Rv			0.02 µg/mL
O=C(O)CCN1CSC(=S)N(C2CC2)C1	MIC				H37Rv			12.5 µg/mL
CCCCS(=O)(=O)Nc1ccc2[nH]c(C(=O)OCC)c(C)c2c1	MIC90			resazurin	DRM167 8x3		I145T DG167-resistant	6.25 µM
O=C(Nc1ccc(OC(F)(F)F)cc1)c1ccc(CO[C@@H]2COc3nc([N+](=O)[O-])cn3C2)cc1	MIC90			low oxygen				0.95 µM
CC1COc2c(C3(N)CC3)c(F)cc3c(=O)c(C(=O)O)cn1c23	MIC90				25 strains			3.13 µg/mL
O=[N+]([O-])c1cn2c(n1)OC[C@@H](OCc1ccc(C#Cc3ccc(C(F)(F)F)cn3)cn1)C2	MIC90			low oxygen				1.6 µM
Cc1ccc2c(Cl)c(Cc3ccccc3)c(Cl)nc2n1	inhibition	6.25 µg/mL		BACTEC	H37Rv			55%
O=C(Nc1cccc(Cl)c1)c1ccccc1O	MIC				CNCTC MY 331/8			16 µM
CC(=O)OC1CCC2(C)C(C)C(C)CCC2(O)C1O	inhibition	6.25 µg/mL		resazurin	H37Rv			30%
Cc1onc(-c2ccccc2Cl)c1C(=O)N[C@@H]1C(=O)N2[C@@H]1SC(C)(C)[C@@H]2C(=O)O	inhibition	25 µg/mL		colony count	Gordon	21 d		100%

The last 7 rows once more:

{"structure": "O=C(Nc1ccc(OC(F)(F)F)cc1)c1ccc(CO[C@@H]2COc3nc([N+](=O)[O-])cn3C2)cc1", "read-out": "MIC90", "read by": "low oxygen", "value": "0.95 µM"}
{"structure": "CC1COc2c(C3(N)CC3)c(F)cc3c(=O)c(C(=O)O)cn1c23", "read-out": "MIC90", "strain or isolate": "25 strains", "value": "3.13 µg/mL"}
{"structure": "O=[N+]([O-])c1cn2c(n1)OC[C@@H](OCc1ccc(C#Cc3ccc(C(F)(F)F)cn3)cn1)C2", "read-out": "MIC90", "read by": "low oxygen", "value": "1.6 µM"}
{"structure": "Cc1ccc2c(Cl)c(Cc3ccccc3)c(Cl)nc2n1", "read-out": "inhibition", "dose": "6.25 µg/mL", "read by": "BACTEC", "strain or isolate": "H37Rv", "value": "55%"}
{"structure": "O=C(Nc1cccc(Cl)c1)c1ccccc1O", "read-out": "MIC", "strain or isolate": "CNCTC MY 331/8", "value": "16 µM"}
{"structure": "CC(=O)OC1CCC2(C)C(C)C(C)CCC2(O)C1O", "read-out": "inhibition", "dose": "6.25 µg/mL", "read by": "resazurin", "strain or isolate": "H37Rv", "value": "30%"}
{"structure": "Cc1onc(-c2ccccc2Cl)c1C(=O)N[C@@H]1C(=O)N2[C@@H]1SC(C)(C)[C@@H]2C(=O)O", "read-out": "inhibition", "dose": "25 µg/mL", "read by": "colony count", "strain or isolate": "Gordon", "setting": "21 d", "value": "100%"}

ECn is the concentration giving n% inhibition of infection, replication or growth. Blank or dashed fields: not listed here. MIC bound: limit read from a one-dose screen. Neighbouring rows are from separate reports. Inhibition is in % at the dose shown (toxicity tests: loss of growth or viability).